Results from article PMC3812931 (Journal of medicinal chemistry, 2013).

Experiments:
[1] = biological target: gp120SF162 (clade B) (Human immunodeficiency virus type 1 group M subtype B, UniProt P19550); assay: Competitive ELISA against sCD4 on gp120SF162; type: binding, HIV-1
[2] = test system: gp120CN54 (clade C); assay: Competitive ELISA against sCD4 on gp120CN54; type: binding, HIV-1; details: oxidation of thioether in 9 to sulfoxide

| SMILES | affinity for the SF162 strain reduced by a factor, relative to 9 ([1]; oxidation of thioether in 9 to sulfoxide) | drop in affinity for gp120CN54 relative to 9 [2] | IC50 ([1]; SEM) |
| --- | --- | --- | --- |
| CC(C)C[C@@H]1NC(=O)CNC(=O)[C@H](CC(C)C)NC(=O)[C@H](CO)NC(=O)[C@H](CCCCN)NC(=O)[C@@H]2CSSC[C@@H](C(=O)N[C@H](C(N)=O)C(C)C)NC(=O)[C@H](C)NC(=O)[C@@H]3CSSC[C@H](NC(=O)[C@H](Cc4ccccc4)NC(=O)[C@H](Cc4c[nH]cn4)NC(=O)[C@H](CC(C)C)NC(=O)[C@H](CC(N)=O)NC(=O)CCSSC[C@H](NC(=O)[C@H](CCCNC(=N)N)NC(=O)CNC(=O)[C@H](CC(C)C)NC1=O)C(=O)N[C@@H](C)C(=O)N1CCC[C@@H]1C(=O)N[C@@H]([C@@H](C)O)C(=O)N[C@@H](Cc1ccc(OCC[S+]([O-])CCO)cc1)C(=O)N3)C(=O)N[C@@H](CCC(N)=O)C(=O)N[C@@H](CC(C)C)C(=O)N[C@@H](CCCNC(=N)N)C(=O)N2 (stereo partly drawn) [compound 15] | 29 | over 300 fold |  |
| CC(C)C[C@@H]1NC(=O)CNC(=O)[C@H](CC(C)C)NC(=O)[C@H](CO)NC(=O)[C@H](CCCCN)NC(=O)[C@@H]2CSSC[C@@H](C(=O)N[C@H](C(N)=O)C(C)C)NC(=O)[C@H](C)NC(=O)[C@@H]3CSSC[C@H](NC(=O)[C@H](Cc4ccccc4)NC(=O)[C@H](Cc4c[nH]cn4)NC(=O)[C@H](CC(C)C)NC(=O)[C@H](CC(N)=O)NC(=O)CCSSC[C@H](NC(=O)[C@H](CCCNC(=N)N)NC(=O)CNC(=O)[C@H](CC(C)C)NC1=O)C(=O)N[C@@H](C)C(=O)N1CCC[C@@H]1C(=O)N[C@@H]([C@@H](C)O)C(=O)N[C@@H](Cc1ccc(OC[C@@H]4CCCN4)cc1)C(=O)N3)C(=O)N[C@@H](CCC(N)=O)C(=O)N[C@@H](CC(C)C)C(=O)N[C@@H](CCCNC(=N)N)C(=O)N2 [compound 10] |  |  | 5.28 ± 0.46 nM |
